For the assay, the system named is HTLV-III reverse transcriptase. Briefly: Reverse transcriptase activity in supernatant of H9-HTLV-III cells (virus production). The settings on record: for Reverse Transcriptase activity (in %): four-day addition, none = 100, 5760 min.

Molecules are shown by their SMILES.

`CC1=CCC[C@H]2[C@](C)(Cc3cc(O)ccc3O)[C@@H](C)CC[C@]12C` [Avarol, 2-[(1R)-1,2,3,4,4a,7,8,8aα-octahydro-1β,2β,4aβ,5-tetramethyl-1-naphthylmethyl]-1,4-benzenediol]: the “Reverse Transcriptase activity (in %)” value reads like this: (0.1 μg/ml) 36%; (1 μg/ml) 20%; (5 μg/ml) 18%. Further, the “reverse transcriptase activity in the supernatant, in words” value (H9-HTLV-III cells) was “dose-dependent reduction of the reverse transcriptase activity”.

These data come from US4939177A, “Use of avarol for the control of AIDS and ARC” (Merz + Co. GmbH & Co., priority 1986, dated 1990).
